Anti-infective test results gathered from many reports (values: NIAID ChemDB through PubChem).

All rows: tests in culture; species: HIV-1; read by: syncytia; endpoint: EC50

ECn: concentration that inhibits the pathogen or its effect by n%. Blank or dashed fields: not listed here. Rows are shuffled and stem from different studies.

| structure | strain or isolate | cell line | changes | value |
|---|---|---|---|---|
| CC(=O)Nc1ccn([C@H]2CS[C@@H](COC(C)=O)O2)c(=O)n1 | BRU | MT-4 |  | ~0.1 µM |
| O=C(c1cccc(I)c1)c1ccc2[nH]c(=O)sc2c1 | IIIB | CEM |  | 4.6 µg/mL |
| CN(Cc1nc2ccccc2[nH]1)C1CCCc2cccnc21 | IIIB | C8166 |  | 2.041 µM |
| COC(=O)[C@H](Cc1ccccc1)NC(=O)[C@H](CCC(=O)Nc1ccn([C@H]2CS[C@@H](CO)O2)c(=O)n1)NC(=O)C[C@H](O)C(CC(C)C)NC(=O)[C@@H](NC(=O)[C@H](Cc1c[nH]c2ccccc12)NC(C)=O)C(C)C |  | MT-4 |  | 10 µM |
| COC(=O)C12CC3CC(C1)CC(N1C(=O)c4ccccc4C1=O)(C3)C2 | IIIB | CEM |  | >20 µg/mL |
| Nc1nc(NC2CC2)c2ncn([C@H]3C=C[C@@H](CO)C3)c2n1 | IIIB | CEM |  | 2.3 µM |
| Cc1cccnc1CN(CCCCN)Cc1nc2nccc(N3CCN(C)CC3)c2[nH]1 | IIIB | C8166 |  | 0.005 µM |
| Nc1ccn([C@@H]2CS[C@H](CO)O2)c(=O)n1 | BRU | MT-4 |  | <0.1 µM |
| Cc1cn([C@@H]2O[C@@H](CO)[C@H](O)[C@H]2O)c(=O)[nH]c1=O | BRU | CEM |  | >1000 µM |
| O=C1c2ccccc2C(=O)N1CC12CC3CC(CC(O)(C3)C1)C2 | IIIB | CEM |  | >20 µg/mL |
| C[C@H](CCC(=O)N[C@@H](Cc1cc(I)c(O)cc1I)C(=O)O)[C@H]1CC[C@H]2[C@@H]3[C@H](O)CC4C[C@H](O)CC[C@]4(C)[C@H]3CC[C@]12C | IIIB | H9 |  | <0.001 µg/mL |
| O=C(CCCCCCCCCCC(=O)Nc1cc(S(=O)(=O)O)cc2cc(S(=O)(=O)O)cc(O)c12)Nc1cc(S(=O)(=O)O)cc2cc(S(=O)(=O)O)cc(O)c12 | IIIB | MOLT-4/HIV-1(IIIB) + MOLT-4 |  | 47.6 µM |
| Nc1ncnc2c1ncn2[C@H]1C[C@@H](O)[C@H](CO)O1 | BRU | CEM |  | >1000 µM |
| O=C(c1cccc([N+](=O)[O-])c1)c1ccc2[nH]c(=O)oc2c1 | IIIB | CEM |  | >8 µg/mL |
| O=C(NCc1ccc(F)cc1)c1nc(N2CCCCS2(=O)=O)c2cccnc2c1O | BaL | PBMC |  | 0.0143 µM |
| Cc1occc1C(=S)Nc1ccc(Cl)c(SCC(=O)OC(C)(C)C)c1 |  | CEM |  | 0.312 µM |
| COC(=O)C[C@H](O)C(CC(C)C)NC(=O)[C@H](C)NC(=O)CC(O)C(Cc1ccccc1)NC(=O)[C@@H](NC(=O)[C@H](Cc1ccc(O)cc1)NC(=O)OCc1ccccc1)C(C)C |  | MT-4 |  | 40 µM |
| CCC(=O)c1ccc2c(c1)sc(=O)n2Cc1ccccc1 | IIIB | CEM |  | >8 µg/mL |
| O=S(=O)(O)c1ccc(NS(=O)(=O)c2ccc(-c3ccc(S(=O)(=O)Nc4ccc(S(=O)(=O)O)c5cccc(S(=O)(=O)O)c45)cc3)cc2)c2c(S(=O)(=O)O)cccc12 | IIIB | MT-4 |  | 80 µg/mL |
| O=C(c1cccc(F)c1)c1ccc2c(c1)oc(=O)n2CCN1CCOCC1 | IIIB | CEM |  | >8 µg/mL |
| CCCCCCCCCCCCCCCC(=O)NC1C(COP(=O)(O)OC2C(O)C(COP(=O)(O)OC3C(O)C(CO)OC3n3cnc4c(N)ncnc43)OC2n2cnc3c(N)ncnc32)OC(n2cnc3c(N)ncnc32)C1O |  |  |  | <100 µM |
| COc1ccc(C)cc1CS(=O)(=O)c1cccc[n+]1[O-] | IIIB | CEM | RT-Y181C | 50 µg/mL |
| CC(C)CC(NC(=O)[C@H](C)NC(=O)C[C@H](O)C(CC(C)C)NC(=O)[C@@H](NC(=O)[C@H](Cc1ccc(O)cc1)NC(=O)OCc1ccccc1)C(C)C)[C@@H](O)CC(=O)Nc1ccn([C@H]2CS[C@@H](CO)O2)c(=O)n1 |  | MT-4 |  | 50 µM |
| Nc1cccc2c1C(=O)N(C1C3CC4CC(C3)CC1C4)C2=O | IIIB | CEM |  | >4 µg/mL |
| C=CCOc1cc(NC(=S)c2ccsc2C)ccc1Cl |  | CEM |  | 0.108 µM |
| CC1=C(/C=C/C=C/C=C/C=C/C(=O)Nc2ccn([C@H]3CS[C@@H](CO)O3)c(=O)n2)C(C)(C)CCC1 | BRU | MT-4 |  | <100 µM |
| Nc1ncnc2c1ncn2[C@@H]1O[C@@H](CO)[C@H](O)[C@H]1O | BRU | CEM |  | >1000 µM |
| C/C1=C\C=C\C2(C)C=C(CO[C@H]3O[C@H](CO)[C@H](O)[C@H](O)[C@H]3O)C(C)CC23OC([O-])C(C3=O)C(O)/C=C/C2(C)C=C(C=O)C(C)CC23OC([O-])C(C3=O)C(O)/C(C)=C/C=C/C2C=C(CO[C@H]3O[C@H](CO)[C@H](O)[C@H](O)[C@H]3O)C(C)CC23OC([O-])C(C3=O)C(O)/C=C/C2(C)C=C(C=O)C(C)CC23OC([O-])C(C3=O)C1O | IIIB | MOLT-4/(MOLT-4/1(IIIB) + MOLT-4 |  | >100 µg/mL |
| C/C=C/CSc1cc(NC(=S)c2ccoc2C)ccc1Cl |  | CEM |  | 0.017 µM |
| CCCCCCCCCCCCCCCC(=O)NC1C(COP(=O)(O)OC2CC(COP(=O)(O)OC3CC(CO)OC3n3cnc4c(N)ncnc43)OC2n2cnc3c(N)ncnc32)OC(n2cnc3c(N)ncnc32)C1O |  |  |  | <100 µM |
| Cn1c(=O)sc2cc(C(=O)c3ccccc3)ccc21 | IIIB | CEM |  | 1.6 µg/mL |
| N[C@H]1C(=O)N[C@@H]2Cc3ccc(c(Cl)c3)Oc3cc4cc(c3O)Oc3ccc(cc3Cl)[C@@H](O)[C@@H]3NC(=O)[C@H](NC(=O)[C@@H]4NC(=O)[C@@H](NC2=O)c2cc(O)cc(c2)Oc2cc1ccc2O)c1ccc(O)c(c1)-c1c(O)cc(O)cc1[C@@H](C(=O)C1NCCC2CCCCC21)NC3=O |  | CEM |  | 1.8 µM |
| Nc1ncnc2c1ncn2C1OC(COP(=O)(O)OC2C(O)C(COP(=O)(O)OC3C(O)C(CO)OC3n3cnc4c(N)ncnc43)OC2n2cnc3c(N)ncnc32)C(F)C1N |  | SupT1 + Sup-T1 |  | <300 µM |
| O=C(c1cccc(Cl)c1)c1ccc2[nH]c(=O)sc2c1 | IIIB | CEM |  | >1.6 µg/mL |
| CN(Cc1nc2ncccc2[nH]1)Cc1ncccc1CCC#N | IIIB | C8166 |  | 77.4 µM |
| O=P(O)(O)OP(=O)(O)OP(=O)(O)OP(=O)(O)O | IIIB | MOLT-4/MOLT-3 |  | >160 µg/mL |
| Nc1nc2c(ncn2[C@H]2C=C[C@@H](CO)C2)c(=O)[nH]1 | IIIB | CEM |  | 2 µM |
| O=C(O)c1ccccc1C(=O)NC12CC3CC(C1)CC(C(=O)O)(C3)C2 | IIIB | CEM |  | >100 µg/mL |
| Cn1c(=O)sc2cc(C(=O)c3cccc([N+](=O)[O-])c3)ccc21 | IIIB | CEM |  | >8 µg/mL |
| CC(=O)N[C@@H](Cc1c[nH]c2ccccc12)C(=O)N[C@H](C(=O)N[C@@H](CC(C)C)[C@@H](O)CC(=O)N[C@@H](CC(C)C)C(=O)N[C@@H](Cc1ccccc1)C(N)=O)C(C)C |  | MT-4 |  | 10 µM |
| CCCCCCCCCCCC(=O)N(CCCCCCCCCCC(=O)O)CC(O)C(O)C(O[C@@H]1O[C@H](CO)[C@H](O)[C@H](O)[C@H]1O)C(O)CO | LAI | C8166 |  | <201 µM |
| COC(=O)C[C@H](O)[C@H](CC(C)C)NC(=O)[C@H](C)NC(=O)C[C@H](O)[C@H](CC(C)C)NC(=O)[C@@H](NC(=O)[C@H](Cc1c[nH]c2ccccc12)NC(=O)OCc1ccccc1)C(C)C |  | MT-4 |  | 10 µM |
| CN(Cc1nc2ccccc2[nH]1)Cc1ncccc1Br | IIIB | C8166 |  | 22.9 µM |
| CC(C)CCC[C@@H](C)[C@H]1CC[C@H]2[C@@H]3CC[C@H]4C[C@@H](CCC=C(c5cc(Cl)c(O)c(C(=O)O)c5)c5cc(Cl)c(O)c(C(=O)O)c5)CC[C@]4(C)[C@H]3CC[C@]12C | IIIB | HuT-78 + HUT 78 |  | 25 µg/mL |
| O=C(c1cccc(Br)c1)c1ccc2[nH]c(=O)sc2c1 | IIIB | CEM |  | 3.5 µg/mL |

Again, the opening 2 rows:

{"structure": "CC(=O)Nc1ccn([C@H]2CS[C@@H](COC(C)=O)O2)c(=O)n1", "strain or isolate": "BRU", "cell line": "MT-4", "value": "~0.1 µM"}
{"structure": "O=C(c1cccc(I)c1)c1ccc2[nH]c(=O)sc2c1", "strain or isolate": "IIIB", "cell line": "CEM", "value": "4.6 µg/mL"}